Measurements published in patent US20240115717A1.

What follows are substances tested against MMP-2 (Magnabead test, anchored by rabbit anti-MMP-2 antibody) (human) (UniProt P08253) (assay: Magnabead test, displacement of 1 µM CTX-A488 from MMP-2, flow cytometry).
With “CTXD5 (purified, recombinant) (peptide; modification not given)” the IC50 was 220 nM.

What follows are substances tested against his-tagged MMP-2 (Co-bead test; ProSpec #ENZ-769) (human) (UniProt P08253) (assay: not given).
With “phage-displayed CTXD of SEQ ID NO: 6 (peptide; modification not given)” the Relative MMP-2 binding (fold of CTX phage) was 3.08.
“phage-displayed CTXD of SEQ ID NO: 8 (peptide; modification not given)” was tested, and the Relative MMP-2 binding (fold of CTX phage) was 2.98.
For “phage-displayed CTXD of SEQ ID NO: 10 (peptide; modification not given)”, the Relative MMP-2 binding (fold of CTX phage) was 2.95.
“phage-displayed CTXD of SEQ ID NO: 11 (peptide; modification not given)” was tested, and the Relative MMP-2 binding (fold of CTX phage) was 2.73.
“phage-displayed CTXD of SEQ ID NO: 12 (peptide; modification not given)” gave a Relative MMP-2 binding (fold of CTX phage) of 2.63.
For “phage-displayed CTXD of SEQ ID NO: 13 (peptide; modification not given)”, the Relative MMP-2 binding (fold of CTX phage) was 2.35.
Work on “phage-displayed CTXD of SEQ ID NO: 14 (peptide; modification not given)” yielded a Relative MMP-2 binding (fold of CTX phage) of 1.99.
Work on “phage-displayed CTXD of SEQ ID NO: 16 (peptide; modification not given)” yielded a Relative MMP-2 binding (fold of CTX phage) of 1.78.

Target: his-tagged MMP-2 (Co-bead test; ProSpec #ENZ-769) (human) (UniProt P08253)
Experiment: not given
Remark: another data set of the same source
“phage-displayed CTXD5 (SEQ ID NO: 4) (peptide; modification not given)” was tested, and the Relative MMP-2 binding (fold of CTX phage) was 3.12.
